## PSTVd loop 6 mutant pool in Nicotiana benthamiana

Reference: Wu et al. 2024, doi:10.1371/journal.ppat.1012142.

The pool varies loop 6 of the PSTVd intermediate strain in the pattern UNNNCGNNNG; wild type is UGACCGCGAG (upper and lower strand joined, each 5' to 3', the first 5 letters being the upper strand, closing pairs included).

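A pool of all variants was put on leaves of three Nicotiana benthamiana plants. Samples came from the inoculated region at 5 days, the leaf margin at 10 and upper systemic leaves at 12.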

Numbers give reads per thousand; 0 = not seen among the reads, higher = more abundant. Each value is the mean of three plants. "Pool" is the share in the plasmid pool used as inoculum, on the same scale. The inoculated region was read from the minus strand, the other sites from the plus strand. IR is the inoculated region, LM the leaf margin, Sys the systemic leaves. With 36,220-57,551 reads a sample, very low values are single reads. Sequences that differ at fixed positions probably stem from PCR or sequencing errors, and defective variants can be carried along by functional ones. Wild type was 20.7 per thousand in the pool and the most common sequence in every sample (inoculated region 195, 198, 203; leaf margin 629, 591, 734; systemic leaves 942, 870, 868).

UUGCCGCUUG (pool 0.131): IR 0.106; LM 0.00920; Sys 0.
UGGACGCUCG (pool 0.340): IR 0.107; LM 0; Sys 0.
UGUCCGCGUG (pool 0.183): IR 0.691; LM 0.0942; Sys 0.
UCUUCGGUAG (pool 0.301): IR 0.0831; LM 0; Sys 0.
UCCCCGCACG (pool 0.235): IR 0.0955; LM 0.0155; Sys 0.
UCAUCGGAGG (pool 0.170): IR 0.0950; LM 0; Sys 0.
UACCCGCGAG (pool 0.275): IR 0.198; LM 0.471; Sys 0.0331.
UACCCGGGAU (pool 0.0131): IR 0; LM 0; Sys 0.
UCUUCGACUG (pool 0.458): IR 0.131; LM 0; Sys 0.
UAUCCGGCCG (pool 0.157): IR 0.126; LM 0; Sys 0.
UGUCCGUUCG (pool 0.235): IR 0.131; LM 0.0247; Sys 0.
UGUACGCGGG (pool 0.288): IR 0.0896; LM 0; Sys 0.
UCUCCGGGUG (pool 0.131): IR 0.0953; LM 0; Sys 0.
UUCUCGAGAG (pool 0.366): IR 0.113; LM 0; Sys 0.
UCGGCGAAGG (pool 0.209): IR 0.0885; LM 0; Sys 0.
UUAUCGGCUG (pool 0.392): IR 0.119; LM 0.00773; Sys 0.
UGGACGUGAG (pool 0.157): IR 0.668; LM 0.111; Sys 0.
UACCCGAGAG (pool 0.261): IR 0.155; LM 0.0387; Sys 0.
UAAGCGGGGG (pool 0.144): IR 0.107; LM 0.00920; Sys 0.
UCCGCGAGCG (pool 0.170): IR 0.0469; LM 0; Sys 0.
UCAGCGCUUG (pool 0.222): IR 0.0770; LM 0.0169; Sys 0.
UCUUCGGUUG (pool 0.288): IR 0.154; LM 0.00841; Sys 0.
UGGCCGAUUG (pool 0.392): IR 0.114; LM 0.0169; Sys 0.
UGAUCGUUAG (pool 0.471): IR 0.101; LM 0.0239; Sys 0.00684.
UCCUCGUUAG (pool 0.405): IR 0.0898; LM 0.00920; Sys 0.
UCUGCGUUAG (pool 0.379): IR 0.0907; LM 0.0324; Sys 0.
UGAGCGCCCG (pool 0.288): IR 0.0833; LM 0; Sys 0.
UGUCCGCUGG (pool 0.131): IR 0.0598; LM 0; Sys 0.
UACACGAGUG (pool 0.170): IR 0.0591; LM 0.00773; Sys 0.
UUGGCGGACG (pool 0.196): IR 0.101; LM 0; Sys 0.
UGGCCGUGCG (pool 0.183): IR 0.143; LM 0.0261; Sys 0.
UAACCGCACG (pool 0.183): IR 0.684; LM 0.100; Sys 0.0473.
UAAUCGGAGG (pool 0.261): IR 0.0833; LM 0.00773; Sys 0.
UAGCCGUCGG (pool 0.248): IR 0.0828; LM 0.0512; Sys 0.
UGAUCGGCUG (pool 0.353): IR 0.631; LM 0.0800; Sys 0.00684.
UAUCCGCAAG (pool 0.144): IR 0.679; LM 0.0316; Sys 0.0400.
UGUUCGAGAG (pool 0.353): IR 0.0956; LM 0.00920; Sys 0.

2 of these entries, quoted again:

{"sequence": "UGUUCGAGAG", "pool": "0.353", "IR": 0.0956, "LM": 0.00920, "Sys": 0}
{"sequence": "UCCGCGAGCG", "pool": "0.170", "IR": 0.0469, "LM": 0, "Sys": 0}